From paper PMC9546559, “Nanomolar inhibition of SARS-CoV-2 infection by an unmodified peptide targeting the prehairpin intermediate of the spike protein” (2022) come the findings set out here.

In the test the target is SARS-CoV-2 S protein with the D614G mutation in the Wuhan-Hu-1 strain (SARS-CoV-2) (UniProt P0DTC2).

On to “longHR2_42 (synthetic, unmodified extended HR2 peptide, residues 1162-1203) (from UniProt P0DTC2 1162-1203)”, for which the IC50 of inhibition of VSV-SARS-CoV-2-D614G infection of Vero+TMPRSS2 cells stood at 0.9 nM.
